Assay results taken from patent US20230271950A1, “ANTIBACTERIAL PICOLINAMIDE COMPOUNDS” (University of Notre Dame Du Lac, priority 2020, published 2023).

System: HeLa cells
Experiment: XTT cytotoxicity assay with HeLa cells
Type: cell-based
Procedure: XTT assay. Cytotoxicity assays were performed in triplicate against HeLa cells (ATCC CCL-2). The IC50 values were calculated by nonlinear regression with GraphPad Prism 5 (San Diego, Calif.).
XTT assay. XTT assays were performed with HeLa cells (ATCC CCL-2) in triplicate, as previously described (Lancet 2008, 371, 1486). IC50 values were determined by nonlinear regression using GraphPad Prism 5 (San Diego, Calif.).

## O=C(O)c1ccc2oc(NC(=O)c3cc(Oc4cccc(OC(F)(F)F)c4)ccn3)nc2c1 [Compound 1, Sodium 2-(4-(3-(trifluoromethoxy)phenoxy)picolinamido)benzo[d]oxazole-5-carboxylate]
HeLa IC50 versus C. difficile MIC90
  IC50 above MIC90: > 700 fold

## O=C(Nc1ncco1)c1cc(-c2ccc(Cl)c(Cl)c2)ccn1 [Compound 87, 4-(3,4-Dichlorophenyl)-N-(oxazol-2-yl)picolinamide]
HeLa XTT IC50 versus C. difficile MIC
  IC50 higher than MIC: 760 fold
